Pooled drug test results. Numbers come from NIAID ChemDB, via PubChem.

All rows: growth or infection tests; organism: Herpes simplex virus 2; read by: cytopathic effect; endpoint: EC50

ECn is the concentration giving n% inhibition of infection, replication or growth.

{"structure": "O=Cc1cn([C@H]2C[C@H](O)[C@@H](CO)O2)c(=O)[nH]c1=O", "cell line": "PRK", "strain": "VDX192", "result": "0.4 µg/mL"}
{"structure": "O=c1[nH]c(=O)n(COCCO)nc1Cc1ccc(O)cc1", "cell line": "HFF", "result": ">100 µM"}
{"structure": "CC1(C)[C@@H](CO)CC[C@@]1(C)Cn1nnc2c(N)ncnc21", "cell line": "E6SM", "strain": "G", "result": ">400 µg/mL"}
{"structure": "O=C1c2ccccc2C(=O)N1CCCC1=NNC(=Nc2ccccc2)SC1", "cell line": "VERO", "strain": "SAV", "result": "73.05 µg/mL"}
{"structure": "NC(=O)c1cncc([C@@H]2O[C@H](CO)[C@@H](O)[C@@H]2O)c1", "cell line": "E6SM", "strain": "G", "result": "≥100 µg/mL"}
{"structure": "CC1(CO)CCC(Cn2nnc3c(=O)[nH]c(N)nc32)C1(C)C", "cell line": "E6SM", "strain": "G", "result": ">200 µg/mL"}
{"structure": "CCCCC#Cc1c[nH]c(=O)[nH]c1=O", "cell line": "HEL", "strain": "G", "result": ">200 µM"}
{"structure": "Cc1cn(C2CC(O[N+](=O)[O-])C(CO)O2)c(=O)[nH]c1=O", "cell line": "E6SM", "strain": "G", "result": ">400 µg/mL"}
{"structure": "Cc1nc(C(C)C)c2[nH]c(=S)[nH]c(=O)n12", "cell line": "PRK", "strain": "G", "result": ">200 µg/mL"}
{"structure": "OCCOCn1c(CCc2ccccn2)nc2ccccc21", "cell line": "HEL", "result": ">100 µg/mL"}
{"structure": "Nn1c(SCC(=O)O)nnc1-c1cn(-c2ccccc2)nc1-c1ccccc1", "cell line": "HEL", "strain": "G", "result": ">80 µg/mL"}
{"structure": "O=c1[nH]c(=O)n(COC(CO)CO)nc1Cc1ccccc1", "cell line": "HFF", "result": ">100 µM"}
{"structure": "Cc1nn2c(-c3cn(-c4ccccc4)nc3-c3ccccc3)nnc2s1", "cell line": "HEL", "strain": "G", "result": ">16 µg/mL"}
{"structure": "Nc1nc2c(ncn2COCCO)c(=O)[nH]1", "cell line": "HFF", "strain": "V68697 (acyclovir-resistant)", "result": ">50 µg/mL"}
{"structure": "Cc1ccc(Cc2nn(COC(CO)CO)c(=O)[nH]c2=O)cc1", "cell line": "HFF", "result": ">100 µM"}
{"structure": "O=c1[nH]c(=O)n([C@H]2C[C@H](O)[C@@H](CO)O2)cc1I", "cell line": "PRK", "strain": "VCX210", "result": "0.3 µg/mL"}
{"structure": "O=c1[nH]c(=O)n(COCCO)nc1Cc1ccccc1", "cell line": "HFF", "result": ">100 µM"}
{"structure": "Nc1ccn([C@@H]2C=C(CO)[C@@H](O)[C@H]2O)c(=O)n1", "cell line": "PRK", "strain": "G", "result": "200 µg/mL"}
{"structure": "C=CCc1nc(C)n2c(=O)[nH]c(=S)[nH]c12", "cell line": "PRK", "strain": "G", "result": ">40 µg/mL"}
{"structure": "O=c1ccn([C@@H]2O[C@H](CO)[C@](O)(C(F)(F)F)[C@H]2O)c(=O)[nH]1", "cell line": "E6SM", "strain": "G", "result": ">400 µg/mL"}
{"structure": "CC1(C)[C@@H](CO)CC[C@@]1(C)Cn1ccc(=O)[nH]c1=O", "cell line": "E6SM", "strain": "G", "result": ">400 µg/mL"}
{"structure": "Nc1ncnc2c1ncn2[C@@H]1C=C(CO)[C@@H](O)[C@@H]1O", "cell line": "PRK", "strain": "G", "result": ">400 µg/mL"}
{"structure": "Cc1cn([C@H]2C[C@H](O[Si]34OCCN(CCO3)CCO4)[C@@H](CO)O2)c(=O)[nH]c1=O", "cell line": "HFF", "result": ">100 µg/mL"}
{"structure": "CC1(CO)CCC(Cn2cnc3c(Cl)nc(N)nc32)C1(C)C", "cell line": "E6SM", "strain": "G", "result": ">100 µg/mL"}
{"structure": "O=c1[nH]c(=O)n(C2CC(O[N+](=O)[O-])C(CO)O2)cc1F", "cell line": "E6SM", "strain": "G", "result": ">400 µg/mL"}
{"structure": "Nc1ncnc2c1ncn2[C@@H]1C=C(CO)[C@@H](O)C1", "cell line": "PRK", "strain": "G", "result": ">400 µg/mL"}
{"structure": "OC[C@H]1O[C@@H](n2c(SCc3ccccn3)nc3cc(Cl)c(Cl)cc32)[C@H](O)[C@@H]1O", "cell line": "HEL", "result": ">50 µg/mL"}
{"structure": "O=c1[nH]c(=O)n([C@H]2C[C@H](O)[C@@H](COP(=O)([O-])OP(=O)([O-])OC[C@@H]3OC(O)[C@H](O)[C@H](O)[C@H]3O)O2)cc1I", "cell line": "PRK", "strain": "LYONS", "result": "0.4 µg/mL"}
{"structure": "NC(=O)c1cncc([C@@H]2O[C@H](CO)[C@H](O)[C@@H]2O)c1", "cell line": "E6SM", "strain": "G", "result": "≥100 µg/mL"}
{"structure": "CCCCc1cc2cnc(=O)[nH]c2o1", "cell line": "HEL", "strain": "G", "result": ">200 µM"}
{"structure": "Nc1nc2c(ncn2[C@@H]2C[C@H](CO)C[C@H]2O)c(=O)[nH]1", "cell line": "VERO", "strain": "MS", "result": "260 µg/mL"}
{"structure": "Nc1nc2c(ccn2[C@H]2CO[C@@H](CO)C2)c(=O)[nH]1", "cell line": "E6SM", "strain": "G", "result": "300 µg/mL"}
{"structure": "Nc1ncnc2c1ncn2/C=C1/CC1(CO)CO", "cell line": "HFF", "result": ">380 µM"}
{"structure": "CC1(C)[C@@H](CO)CC[C@@]1(C)Cn1nnc2c(Cl)ncnc21", "cell line": "E6SM", "strain": "G", "result": ">400 µg/mL"}
{"structure": "CCCc1cn([C@H]2C[C@H](O)[C@@H](CO)O2)c(=O)[nH]c1=O", "cell line": "PRK", "strain": "LYONS", "result": "4.8 µg/mL"}
{"structure": "CCCCCC#Cc1c[nH]c(=O)[nH]c1=O", "cell line": "HEL", "strain": "G", "result": ">200 µM"}
{"structure": "O=C1CSc2nnc(-c3cn(-c4ccccc4)nc3-c3ccccc3)n2N1", "cell line": "HEL", "strain": "G", "result": ">16 µg/mL"}
{"structure": "Nc1nccc2c1ncn2[C@@H]1C[C@H](CO)[C@@H](O)[C@H]1O", "cell line": "PRK", "strain": "G", "result": "≥200 µg/mL"}
{"structure": "Nc1ncnc2c1ncn2C[C@@H](CO)OCP(=O)(O)O", "cell line": "PRK", "strain": "LYONS", "result": "1 µg/mL"}
{"structure": "N#Cc1cncc([C@@H]2O[C@H](CO)[C@@H](O)[C@@H]2O)c1", "cell line": "E6SM", "strain": "G", "result": "≥100 µg/mL"}
{"structure": "O=c1[nH]n2c(-c3cn(-c4ccccc4)nc3-c3ccccc3)nnc2sc1=O", "cell line": "HEL", "strain": "G", "result": "80 µg/mL"}
{"structure": "Nc1ncnc2c1ncn2C[C@H](O)CO", "cell line": "PRK", "strain": "G", "result": ">400 µg/mL"}
{"structure": "Cc1cn([C@@H]2O[C@H](COP(=O)(O)O)[C@@H](O)[C@@H]2O)c(=O)[nH]c1=O", "cell line": "HELF", "strain": "HG-52", "result": "1 µg/mL"}
{"structure": "NC(=O)c1cncc([C@H]2O[C@H](CO)[C@@H](O)[C@@H]2O)c1", "cell line": "E6SM", "strain": "G", "result": "≥100 µg/mL"}
{"structure": "CCCCCCCC#Cc1c[nH]c(=O)[nH]c1=O", "cell line": "HEL", "strain": "G", "result": ">40 µM"}
{"structure": "Nc1nc2c(ncn2[C@H]2CO[C@@H](CO)C2)c(=O)[nH]1", "cell line": "E6SM", "strain": "G", "result": "4 µg/mL"}
{"structure": "O=c1[nH]c(=O)n([C@H]2CC[C@@H](CO)O2)cc1/C=C/Br", "cell line": "PRK", "strain": "196", "result": "1.5 µg/mL"}
{"structure": "C#C[C@H](O)C1=C[C@@H](n2cnc3c(N)ncnc32)[C@H](O)[C@@H]1O", "cell line": "E6SM", "strain": "G", "result": ">100 µg/mL"}
{"structure": "[N-]=[N+]=NCc1cn([C@H]2C[C@H](O)[C@@H](CO)O2)c(=O)[nH]c1=O", "cell line": "PRK", "strain": "G", "result": "10 µg/mL"}
{"structure": "O=c1[nH]c(=O)n([C@H]2C[C@H](O)[C@@H](CO)O2)cc1F", "cell line": "PRK", "strain": "196", "result": ">40 µg/mL"}
{"structure": "O=c1[nH]c(=O)n([C@H]2C[C@H](O)[C@@H](CO)O2)cc1CCCl", "cell line": "PRK", "strain": "LYONS", "result": "0.55 µg/mL"}
{"structure": "CSCc1cn([C@H]2C[C@H](O)[C@@H](CO)O2)c(=O)[nH]c1=O", "cell line": "PRK", "strain": "VCX301", "result": "4 µg/mL"}
{"structure": "CC1(CO)CCC(Cn2nnc3c(Cl)nc(N)nc32)C1(C)C", "cell line": "E6SM", "strain": "G", "result": ">100 µg/mL"}
{"structure": "OC[C@H]1O[C@@H](c2cc(C(O)CBr)c(F)cc2F)C[C@@H]1O", "cell line": "E6SM", "strain": "G", "result": ">3.2 µg/mL"}
{"structure": "Cc1cn([C@@H]2O[C@H](CO)[C@](O)(C(F)(F)F)[C@H]2O)c(=O)[nH]c1=O", "cell line": "E6SM", "strain": "G", "result": "100 µg/mL"}
{"structure": "Cc1cn([C@H]2C=C[C@@H](OC(C(=O)O)P(=O)(O)O)C2)c(=O)[nH]c1=O", "cell line": "HEL", "strain": "G", "result": ">250 µM"}
{"structure": "Nc1nc2c(ncn2COCCO)c(=O)[nH]1", "cell line": "PRK", "strain": "LYONS", "result": "0.07 µg/mL"}
{"structure": "O=c1[nH]c(=O)n([C@H]2C[C@H](O)[C@@H](COP(=O)(O)O)O2)cc1I", "cell line": "PRK", "strain": "G", "result": "2 µg/mL"}
{"structure": "CC(=O)c1c(O)c(C(=O)CC(C)C)c(O)c2c1OC(C(C)(C)O)C2", "cell line": "VERO", "result": "10.4 µM"}
{"structure": "COC(CI)c1cc([C@H]2C[C@H](O)[C@@H](CO)O2)c(F)cc1F", "cell line": "E6SM", "strain": "G", "result": ">80 µg/mL"}
{"structure": "C=C[C@H](O)C1=C[C@@H](n2cnc3c(N)ncnc32)[C@H](O)[C@@H]1O", "cell line": "E6SM", "strain": "G", "result": ">100 µg/mL"}
{"structure": "OC[C@H]1O[C@@H](n2c(CCc3ccccn3)nc3cc(Cl)c(Cl)cc32)[C@H](O)[C@@H]1O", "cell line": "HEL", "result": ">100 µg/mL"}
{"structure": "C=CCc1ncn2c(=O)[nH]c(NC(C)=O)nc12", "cell line": "PRK", "strain": "G", "result": ">200 µg/mL"}
{"structure": "OC[C@H]1O[C@H](c2cncc(Br)c2)[C@@H](O)[C@@H]1O", "cell line": "E6SM", "strain": "G", "result": "≥100 µg/mL"}
{"structure": "C=CCN=C1NN=C(C(C)N2C(=O)c3ccccc3C2=O)CS1", "cell line": "VERO", "strain": "SAV", "result": ">333 µg/mL"}
{"structure": "CCCCC#Cc1cn(S(=O)(=O)c2ccc(C)cc2)c(=O)[nH]c1=O", "cell line": "HEL", "strain": "G", "result": ">40 µM"}
{"structure": "OC[C@H]1O[C@H](c2cncc(Br)c2)[C@@H](O)[C@H]1O", "cell line": "E6SM", "strain": "G", "result": "≥100 µg/mL"}
{"structure": "CCCCCCCCC#Cc1cn(S(=O)(=O)c2ccc(C)cc2)c(=O)[nH]c1=O", "cell line": "HEL", "strain": "G", "result": ">200 µM"}
{"structure": "NC(=O)c1cncc([C@H]2O[C@H](CO)[C@H](O)[C@@H]2O)c1", "cell line": "E6SM", "strain": "G", "result": "≥100 µg/mL"}
{"structure": "OCCOCn1c(CCc2ccccn2)nc2cc(Cl)c(Cl)cc21", "cell line": "HEL", "result": ">100 µg/mL"}
{"structure": "O=c1[nH]c(=O)n(COC(CO)CO)nc1Cc1ccc(O)cc1", "cell line": "HFF", "result": ">100 µM"}

The last 10 rows once more:

structure	cell line	strain	result
OC[C@H]1O[C@@H](n2c(CCc3ccccn3)nc3cc(Cl)c(Cl)cc32)[C@H](O)[C@@H]1O	HEL	-	>100 µg/mL
C=CCc1ncn2c(=O)[nH]c(NC(C)=O)nc12	PRK	G	>200 µg/mL
OC[C@H]1O[C@H](c2cncc(Br)c2)[C@@H](O)[C@@H]1O	E6SM	G	≥100 µg/mL
C=CCN=C1NN=C(C(C)N2C(=O)c3ccccc3C2=O)CS1	VERO	SAV	>333 µg/mL
CCCCC#Cc1cn(S(=O)(=O)c2ccc(C)cc2)c(=O)[nH]c1=O	HEL	G	>40 µM
OC[C@H]1O[C@H](c2cncc(Br)c2)[C@@H](O)[C@H]1O	E6SM	G	≥100 µg/mL
CCCCCCCCC#Cc1cn(S(=O)(=O)c2ccc(C)cc2)c(=O)[nH]c1=O	HEL	G	>200 µM
NC(=O)c1cncc([C@H]2O[C@H](CO)[C@H](O)[C@@H]2O)c1	E6SM	G	≥100 µg/mL
OCCOCn1c(CCc2ccccn2)nc2cc(Cl)c(Cl)cc21	HEL	-	>100 µg/mL
O=c1[nH]c(=O)n(COC(CO)CO)nc1Cc1ccc(O)cc1	HFF	-	>100 µM

Conditions beyond the fields shown may differ between rows. An empty or dashed field is not shown.